Compound potency records, mixed from different reports. Data source: NIAID ChemDB in PubChem.

All rows: whole-cell or culture tests; agent: Mycobacterium tuberculosis

MIC50, MIC90 and the like: level of inhibition, or share of isolates inhibited. An empty or dashed field is not shown. Percent inhibition refers to the dose given; in toxicity tests it is the harm to the cells. ECn: concentration that inhibits the pathogen or its effect by n%. Conditions beyond the fields shown may differ between rows.

smiles,changes,method,tested at,endpoint,strain,result
CCOC(=O)Nc1cc2c(nc(-c3ccccc3)c3nncn32)c(NC(c2ccccc2)c2ccccc2)n1,-,-,12.5 µg/mL,inhibition,H37Rv,0%
Cc1occc1-c1nnc(SCC(=O)N(C)c2ccc(F)cc2)o1,-,resazurin,-,MIC,Clinical isolate,16 µg/mL
Fc1ccc(-c2c(C(c3ccccc3)n3ccnc3)cnn2-c2ccccc2)cc1,-,-,-,MIC50,ATCC 35837 (ethambutol-resistant),≥100 µM
NNC(=O)c1ccncc1,Rifampicin- and isoniazid-resistant,broth dilution,-,MIC,Clinical isolate 565,≥10 µM
NNC(=O)c1ccncc1,-,-,-,MIC90,ATCC 35828 (pyrazinamide-resistant),2.4 µM
CO[C@H]1/C=C/O[C@@]2(C)Oc3c(C)c(O)c4c(O)c(c(/C=N/N5CCN(C)CC5)c(O)c4c3C2=O)NC(=O)/C(C)=C\C=C\[C@H](C)[C@H](O)[C@@H](C)[C@@H](O)[C@@H](C)[C@H](OC(C)=O)[C@@H]1C,-,broth dilution,-,MIC,Clinical isolate 30425,≤1 µM
O=C1C=C(Nc2ccccn2)C(=O)C=C1Nc1ccccn1,-,resazurin,6.25 µg/mL,inhibition,H37Rv,-78%
CO/C(C)=C1/NC(=O)[C@H]([C@@H](C)O)NC(=O)c2csc(n2)-c2cc(O)c(-c3nc(C(=O)NCCCN4CCOCC4)cs3)nc2-c2csc(n2)[C@@H]2COC(=O)c3c4c5c(cccc5n3O)COC(=O)[C@@H](O[C@H]3C[C@](C)(O)[C@H](N(C)C)[C@H](C)O3)[C@@H](OC4)[C@H](NC(=O)c3csc1n3)c1nc(cs1)C(=O)N2,-,broth dilution,-,MIC,Clinical isolate 30034,≤2.5 µM
CC(=O)Nc1ccc(OCC(=O)N/N=C/c2ccccc2Cl)cc1,-,-,-,EC50,H37Rv,>12.5 µg/mL
Clc1ccc(-n2ncc(C(c3ccccc3)n3ccnc3)c2-c2ccccc2)c(Cl)c1,-,-,-,MIC90,ATCC 27294,29.3 µM
CC[C@H]1OC(=O)[C@H](C)[C@@H](O[C@H]2C[C@@](C)(OC)[C@@H](O)[C@H](C)O2)[C@H](C)[C@@H](O[C@@H]2O[C@H](C)C[C@H](N(C)C)[C@H]2O)[C@](C)(O)C[C@@H](C)CN(C)[C@H](C)[C@@H](O)[C@]1(C)O,-,-,-,MIC50,DRUG-SUS,>8 µg/mL
Cc1ccccc1C1SCC(=O)N1C(=O)NCCCN1c2ccccc2Sc2ccccc21,-,agar,25 µg/mL,inhibition,H37Rv,30%
Clc1ccccc1C(c1ccccc1)(c1ccccc1)n1ccnc1,-,-,-,MIC90,ATCC 27294,61.2 µM
NC(=O)c1cnccn1,-,-,-,MIC,Isolate 11135 monodrug-resistant,>300 µg/mL
O=C1CSC(c2ccc(Br)cc2)N1C(=O)NCCCN1c2ccccc2Sc2ccccc21,-,agar,25 µg/mL,inhibition,H37Rv,30%
CC1CCCC(C)N1C(=O)c1noc2c1CC(C(C)(C)C)CC2,-,resazurin,-,MIC,Clinical isolate,16 µg/mL
C[C@@H]1CN(c2c(F)c(N)c3c(=O)c(C(=O)O)cn(C4CC4)c3c2F)C[C@H](C)N1,-,-,-,MBC,H37Rv,0.6 µg/mL
CCOC(=O)Nc1cc(NC(C)CCCN(CC)CC)c2nc(-c3ccc(Cl)cc3)c(-c3ccc(Cl)cc3)nc2n1,-,-,-,EC50,H37Rv,<12.5 µg/mL
CO[C@H]1/C=C/O[C@@]2(C)Oc3c(C)c(O)c4c(O)c(c(/C=N/N5CCN(C)CC5)c(O)c4c3C2=O)NC(=O)/C(C)=C\C=C\[C@H](C)[C@H](O)[C@@H](C)[C@@H](O)[C@@H](C)[C@H](OC(C)=O)[C@@H]1C,-,-,-,MIC,13268,>0.1 µg/mL
c1ccc(-c2c(C(c3ccccc3)n3ccnc3)cnn2-c2ccccc2)cc1,-,-,-,MIC90,ATCC 35822 (isoniazid-resistant),86.6 µM
CC(C)C(=O)N1c2ccccc2OC(=O)C1CC(=O)Nc1ccccc1,-,resazurin,-,MIC,Clinical isolate,8 µg/mL
CCOC(=O)Nc1cc(OCC)c2nc(-c3ccccc3)c(-c3ccccc3)nc2n1,-,-,-,EC50,H37Rv,<12.5 µg/mL
CC(C)n1[nH]c(=O)c2c1NC(=O)CSC2c1ccccc1,-,resazurin,-,MIC,Clinical isolate,4 µg/mL
CC1CN(c2cc3c(cc2F)c(=O)c(C(=O)O)cn3-c2ccc(F)cc2F)CCN1,-,-,-,MIC90,MDR,>8 µg/mL
O=C(/N=C/c1ccccc1Cl)NCCCN1c2ccccc2Sc2ccccc21,-,agar,25 µg/mL,inhibition,H37Rv,30%
CN[C@@H]1[C@H](O[C@H]2[C@H](O[C@H]3[C@H](O)[C@@H](O)[C@H](N=C(N)N)[C@@H](O)[C@@H]3N=C(N)N)O[C@@H](C)[C@]2(O)C=O)O[C@@H](CO)[C@H](O)[C@H]1O,-,-,-,MIC50,ATCC 35820 (streptomycin-resistant),≥100 µM
CC(=O)Nc1ccc(OCC(=O)NN2C(=O)CSC2c2ccc(O)cc2)cc1,-,-,12.5 µg/mL,inhibition,H37Rv,0%
O=C(NCCCN1c2ccccc2Sc2ccccc21)N1C(=O)/C(=C\c2cccc(Cl)c2)SC1c1cccc(Cl)c1,-,agar,25 µg/mL,inhibition,H37Rv,36%
O=C(O)c1cc2ccc3c(c2oc1=O)CN(c1ccc(Cl)cc1)CO3,-,resazurin,-,MIC,Clinical isolate,16 µg/mL
C=C(NC(=O)c1csc(-c2nc3c(cc2O)-c2nc(cs2)C(=O)N[C@@H]([C@@H](C)O)C(=O)N/C(=C(\C)OC)c2nc(cs2)C(=O)N[C@@H]2c4nc(cs4)C(=O)N[C@@H](COC(=O)c4c5c6c(cccc6n4O)COC(=O)[C@@H](O[C@H]4C[C@](C)(O)[C@H](N(C)C)[C@H](C)O4)[C@H]2OC5)c2nc-3cs2)n1)C(N)=O,-,broth dilution,-,MIC,Clinical isolate 30425,≤2.5 µM
Fc1ccccc1-c1c(C(c2ccccc2)n2ccnc2)cnn1-c1ccccc1,-,-,-,MIC50,ATCC 35820 (streptomycin-resistant),≥100 µM
CCNc1oc(-c2ccc(S(=O)(=O)N3CCC(C)CC3)cc2)nc1C#N,-,resazurin,-,MIC,Clinical isolate,8 µg/mL
CO/C(C)=C1/NC(=O)[C@H]([C@@H](C)O)NC(=O)c2csc(n2)-c2cc(O)c(-c3nc(C(=O)NC(C)c4nc(-c5ccccn5)ns4)cs3)nc2-c2csc(n2)[C@@H]2COC(=O)c3c4c5c(cccc5n3O)COC(=O)[C@@H](O[C@H]3C[C@](C)(O)[C@H](N(C)C)[C@H](C)O3)[C@@H](OC4)[C@H](NC(=O)c3csc1n3)c1nc(cs1)C(=O)N2,-,broth dilution,-,MIC,H37Rv,≤10 µM
CCOC(=O)Nc1cc2[nH]c(-c3ccc(Oc4ccccc4)cc3)nc2c(N(CCc2ccccc2)Cc2ccccc2)n1,-,-,-,EC50,H37Rv,<12.5 µg/mL
C[C@H]1C[C@H](N)CN1c1cc2c(cc1F)c(=O)c(C(=O)O)cn2-c1ccc(F)cc1F,-,-,-,MIC,ATCC 35823,4 µg/mL
CC(=O)Nc1ccc(OCC(=O)NN2C(=O)C(C)SC2c2cccc([N+](=O)[O-])c2)cc1,-,-,-,EC50,H37Rv,>12.5 µg/mL
CC1COc2c(N3CCN(C)CC3)c(F)cc3c(=O)c(C(=O)O)cn1c23,-,-,-,MIC50,MDR,4 µg/mL
Clc1ccc(-n2ncc(C(c3ccccc3)n3ccnc3)c2-c2ccccc2)cc1,-,-,-,MIC90,ATCC 35828 (pyrazinamide-resistant),≥100 µM
CC(=O)Nc1ccc(OCC(=O)NN2C(=O)CSC2c2ccco2)cc1,-,-,-,EC50,H37Rv,>12.5 µg/mL
O=C(NCCCN1c2ccccc2Sc2ccccc21)N1C(=O)/C(=C\c2ccc(O)cc2)SC1c1ccc(O)cc1,-,agar,50 µg/mL,inhibition,H37Rv,76%
CCOC(=O)Nc1cc(N)c2c(n1)OCC(c1ccc(OC)c(OC)c1)=N2,-,-,-,EC50,H37Rv,>12.5 µg/mL